Results of unrelated studies side by side (data: NIAID ChemDB).

Shared fields: toxicity to cultured cells; cell line: HFF; read-out: CC50

CCn: concentration that lowers growth or viability of the cells by n%. An empty or dashed field is not shown. Neighbouring rows are from separate reports.

compound,method,value
CCOC(=O)C1C(c2ccc(Cl)cc2)CC(c2ccccc2)=CC12NCCN2,-,0.1279 µM
Cc1cc(C)c(Nc2cc(S(=O)(=O)O)c(N)c3c2C(=O)c2ccccc2C3=O)c(C)c1,-,275 µM
CCCC(CCC)C(=O)O,-,52 µg/mL
OC[C@H]1O[C@@H](n2cnc(Br)c2Br)[C@H](O)[C@@H]1O,-,>100 µM
[Cl][Sn]([Cl])([Cl])[c]1ccccc1,-,1.1 µg/mL
CCOC(=O)C1C(c2ccc(OC)cc2)CC(c2ccccc2)=CC12NCCN2,-,0.1279 µM
CCCCCCC[CH2][Sn]([Cl])([Cl])[Cl],-,245 µg/mL
CC1=C(C(=O)NCc2ccc(C)cc2)OC2OC3(C)CC[C@H]4[C@H](C)CC[C@@H]1[C@@]24OO3,-,72 µM
C[C@H]1[C@@H](CCCC(=O)c2ccccc2Br)O[C@@H]2OC3(C)CC[C@H]4[C@H](C)CC[C@@H]1[C@@]24OO3,-,>320 µg/mL
COC(=O)[C@H](C)NP(=O)(OC[C@H]1C/C1=C/n1cnc2c(=O)[nH]c(N)nc21)Oc1ccccc1,-,>206 µM
COC(=O)C(C)NP(=O)(OC[C@@H]1C/C1=C/n1cnc2c(N)nc(N)nc21)Oc1ccccc1,neutral red,152 µM
C[C@H]1[C@@H](CCCO)O[C@@H]2OC3(C)CC[C@H]4[C@H](C)CC[C@@H]1[C@@]24OO3,-,160 µg/mL
CCOC(=O)C1C(c2ccc(Cl)cc2)CC(c2ccc(OC)cc2)=CC12NCCN2,-,0.1279 µM
COC(=O)[C@H](C)NP(=O)(OC[C@@H]1C[C@]12C[C@@H]2n1cnc2c(N)ncnc21)Oc1ccccc1,-,100 µM
N#Cc1c(Br)n(COC(CO)CO)c2ncnc(N)c12,visual reading,100 µM
Cc1nc2n(c(=O)c1CCN1CCC(c3noc4cc(F)ccc34)CC1)CC(O)CC2,-,134 µg/mL
C[C@H]1[C@@H](CCCC(=O)c2ccccc2)O[C@@H]2OC3(C)CC[C@H]4[C@H](C)CC[C@@H]1[C@@]24OO3,-,>320 µg/mL
COCCOCn1cc(C(N)=S)c2c(N)ncnc21,visual reading,>100 µM
COC(=O)[C@H](C)NP(=O)(OC[C@H]1C/C1=C/n1cnc2c(OC)nc(N)nc21)Oc1ccccc1,-,34 µM
COC(=O)C(C)NOP(OC[C@H]1C/C1=C/n1cnc2c(N)[nH]c(=O)nc21)Oc1ccccc1,-,>205 µM
NC(=S)c1c(N)n([C@@H]2O[C@H](CO)[C@@H](O)[C@H]2O)c2ncnc(N)c12,visual reading,0.6 µM
N#Cc1cn([C@@H]2O[C@H](CO)[C@@H](O)[C@@H]2O)c2ncnc(N)c12,visual reading,8 µM
Nc1ncnc2c1ncn2/C=C1/C[C@@H]1CO,neutral red,68 µM
O=C(CCCN1CCC(O)(c2ccc(Cl)cc2)CC1)c1ccc(F)cc1,-,103 µg/mL
C[CH2][Sn]([Cl])([Cl])[CH2]C.c1ccc(-c2nc3ccccc3[nH]2)nc1,-,11 µg/mL
CC1=CC(S(=O)(=O)O)=C(Nc2cccc3c2C(=O)c2cccc(Nc4ccc(C)cc4S(=O)(=O)O)c2C3=O)CC1,-,300 µM
CCOC(=O)C1C(c2ccccc2)CC(c2ccccc2)=CC12NCCN2,-,0.1279 µM
Nc1nc(NC2CC2)c2ncn(C=C3CC3CO)c2n1,visual reading,222 µM
C[CH](C)[Sn]([Cl])([Cl])[CH](C)C,-,8 µg/mL
N#Cc1cn([C@@H]2O[C@H](CO)[C@@H](O)[C@H]2O)c2ncnc(N)c12,-,0.03 µM
Clc1nc(Cl)c(Cl)[nH]1,-,75 µM
Nc1ncnc2c1ncn2[C@@H]1C[C@@H](O)[C@H](CO)O1,-,>100 µM
Cn1c2ccccc2c2c3c(c4c5ccccc5n(CCC#N)c4c21)CNC3=O,-,>0.1 µM
CC1=C(C(=O)NCc2ccc(F)cc2)OC2OC3(C)CC[C@H]4[C@H](C)CC[C@@H]1[C@@]24OO3,-,320 µM
CCCCCCC[CH2][Sn]([Cl])([Cl])[CH2]CCCCCCC,-,75 µg/mL
Nc1ncnc2c1ccn2[C@@H]1O[C@H](CO)[C@@H](O)[C@@H]1O,-,>100 µM
CCOC(=O)C1C(c2ccccc2)CC(c2ccc(OC)cc2)=CC12NCCN2,-,0.1279 µM
[Br][Sn]([Br])([c]1ccccc1)[c]1ccccc1,-,2 µg/mL
CCOC(=O)C1C(c2ccc(C)cc2)CC(c2ccc(Cl)cc2)=CC12NCCN2,-,0.1279 µM
N#Cc1c(N)n([C@@H]2O[C@H](CO)[C@@H](O)[C@H]2O)c2ncnc(N)c12,visual reading,0.2 µM
N#Cc1cn([C@@H]2O[C@H](CO)[C@@H](O)[C@@H]2O)c2ncnc(N)c12,-,10 µM
OC[C@H]1O[C@@H](n2c(Cl)nc(Cl)c2Cl)[C@H](O)[C@@H]1O,-,>100 µM
NC(=O)c1c(Br)n([C@@H]2O[C@H](CO)[C@@H](O)[C@H]2O)c2ncnc(N)c12,visual reading,10 µM
CCCCCCCc1c(C)[nH]c2cc(OC)ccc2c1=O,absorbance,>50 µM
COC(=O)C(C)NP(=O)(OC[C@H]1C/C1=C/n1cnc2c(N)nc(N)nc21)Oc1ccccc1,neutral red,57 µM
Nc1nc(F)nc2c1ncn2/C=C1\CC1CO,-,>100 µM
COc1nc(N)nc2c1ncn2/C=C1/C[C@@H]1CO,neutral red,16 µM
COC(=O)[C@H](C)NP(=O)(OCC1C/C1=C\n1cnc2c(N)ncnc21)Oc1ccccc1,-,141 µM
CC(=O)Nc1ccc(Nc2cc(S(=O)(=O)O)c(N)c3c2C(=O)c2ccccc2C3=O)cc1,-,380 µM
CC[C@]1(C)NC(=O)[C@H](CCCCCC(=O)[C@H](C)O)NC(=O)[C@H]2C[C@H](C)CN2C(=O)C(Cc2ccccc2)NC1=O,-,0.1279 µM
Nc1nc2c(ncn2/C=C2/C[C@@H]2CO)c(=O)[nH]1,neutral red,257 µM
NC(=O)c1c(N)n([C@@H]2O[C@H](CO)[C@@H](O)[C@H]2O)c2ncnc(N)c12,visual reading,7 µM
Nc1nc(N)c2ncn(/C=C3/C[C@@H]3CO)c2n1,neutral red,298 µM
OC[C@H]1O[C@@H](n2c(Br)nc(Cl)c2Cl)[C@@H](O)[C@@H]1O,-,>100 µM
N#Cc1cn([C@@H]2O[C@H](CO)[C@@H](O)[C@H]2O)c2ncnc(N)c12,visual reading,0.03 µM
N#CCCn1c2ccccc2c2c3c(c4c5ccccc5[nH]c4c21)C(=O)NC3,-,>0.1 µM
Nc1nc(F)nc2c1ncn2/C=C1/CC1CO,-,12.8 µM
Nc1nc(Cl)c2ncn(/C=C3/C[C@@H]3CO)c2n1,neutral red,28 µM
CC1=C(C(=O)NCc2ccc(F)c(F)c2)OC2OC3(C)CC[C@H]4[C@H](C)CC[C@@H]1[C@@]24OO3,-,320 µM
Nc1ccn([C@@H]2C[C@@H](O)[C@H](CO)O2)c(=O)n1,-,>60 µM

7 of the rows above, restated:

compound	method	value
COC(=O)C(C)NOP(OC[C@H]1C/C1=C/n1cnc2c(N)[nH]c(=O)nc21)Oc1ccccc1	-	>205 µM
N#Cc1c(Br)n(COC(CO)CO)c2ncnc(N)c12	visual reading	100 µM
CCOC(=O)C1C(c2ccccc2)CC(c2ccccc2)=CC12NCCN2	-	0.1279 µM
OC[C@H]1O[C@@H](n2cnc(Br)c2Br)[C@H](O)[C@@H]1O	-	>100 µM
CCCCCCC[CH2][Sn]([Cl])([Cl])[CH2]CCCCCCC	-	75 µg/mL
C[CH](C)[Sn]([Cl])([Cl])[CH](C)C	-	8 µg/mL
Cc1nc2n(c(=O)c1CCN1CCC(c3noc4cc(F)ccc34)CC1)CC(O)CC2	-	134 µg/mL